A mixed list of measured activities; the numbers were collected in NIAID ChemDB.

MIC50, MIC90 and the like: level of inhibition, or share of isolates inhibited. ECn is the concentration giving n% inhibition of infection, replication or growth. Percent inhibition refers to the dose given; in toxicity tests it is the harm to the cells. Conditions beyond the fields shown may differ between rows. ICn: concentration for n% inhibition. MIC bound: limit read from a one-dose screen. An empty or dashed field is not shown.

compound	strain	protein	mutations	test	species	cells	endpoint	read by	tested at	value
CC(=O)c1ccc(N2CCN(c3cncc(-c4cccc5ccccc45)n3)CC2)cc1		UL97 kinase		target	Cytomegalovirus		inhibition		10 µM	>15%
COCC1OC(OC2(COC)OC(COC)C(OC)C2OC)C(OC)C(OC)C1OC	H37Rv			culture	Mycobacterium tuberculosis		inhibition	BACTEC	12.5 µg/mL	-21%
CC1CCC(NCCNC[C@]2(C)CCC[C@]3(C)c4ccc(C(C)C)cc4CC[C@@H]23)CC1				culture	Mycobacterium tuberculosis		MIC			25 µM
COC(=O)c1cc(-c2ccccc2)c2c(=O)n(-c3ccccc3)[nH]c2n1	H37Rv			culture	Mycobacterium tuberculosis		MIC bound	BACTEC		>12.5 µg/mL
O=C(O)c1c2c3c(cccc3[nH]c1=O)C(=O)c1ccccc1-2	H37Rv			culture	Mycobacterium tuberculosis		MIC			100 µg/mL
CCCCCCCC/C=C/CCCCCCCC(=O)Nc1nnc(NCCCN2CCN(C)CC2)s1		Polymerase		target	Human cytomegalovirus		IC50			<25 µM
CCCCCCCCCCS(=O)(=O)Nc1ccc(C(=O)NN)cc1	H37Rv			culture	Mycobacterium tuberculosis		inhibition	BACTEC	12.5 µg/mL	74%
Clc1cccc(N2CCN(c3cncc(-c4ccc5ccccc5c4)n3)CC2)c1		UL97 kinase		target	Cytomegalovirus		IC50			<100 µM
COC(=O)C(=O)c1c(C(=O)OC)nc2nnc(N)n2c1-c1ccc(F)cc1	H37Rv			culture	Mycobacterium tuberculosis		inhibition	resazurin	6.25 µg/mL	-2%
Cc1cc(NCCCCN2CCCCC2)cc(C)n1.Cl	H37Rv			culture	Mycobacterium tuberculosis		MIC			>100 µg/mL
O=C(Nc1nnc(NCC(c2ccccc2)c2ccccc2)s1)c1cc2ccccc2s1		Polymerase		target	Human cytomegalovirus		IC50			>25 µM
NC(=O)Cc1c[nH]c2ccccc12	H37Rv			culture	Mycobacterium tuberculosis		MIC			>100 µg/mL
c1ccc2c(c1)CC(NCCNC1CCCCCCC1)C2				culture	Mycobacterium tuberculosis		MIC			25 µM
O=C(C(=O)c1ccc(Cl)cc1)c1ccc(Cl)cc1	H37Rv			culture	Mycobacterium tuberculosis		MIC			>100 µg/mL
CCCCCCCCCCCNCCNCC1CCCO1				culture	Mycobacterium tuberculosis		MIC			50 µM
C#CC[C@@H](C(=O)N[C@H](/C=C/C(=O)OCC)C[C@@H]1CCNC1=O)n1cccc(NC(=O)c2cc(C)on2)c1=O	Serotype 19			culture	Rhinovirus	H1-HELA	EC50	cytopathic effect / XTT		0.049 µM
CCN(CC)CCCCNc1ccnc(N)n1.Cl	H37Rv			culture	Mycobacterium tuberculosis		MIC			50 µg/mL
O=C(Nc1nnc(NCCCCc2ccccc2)s1)c1cc2ccccc2s1		Polymerase		target	Human cytomegalovirus		IC50			<25 µM
Cc1ccc(Nc2ccc(N)c3c2C(=O)c2ccccc2C3=O)cc1	H37Rv			culture	Mycobacterium tuberculosis		MIC			100 µg/mL
NS(=O)(=O)c1ccc(CNc2nnc(NC(=O)c3ccc(I)cc3)s2)cc1		Polymerase		target	Human cytomegalovirus		IC50			<25 µM
Cl.Nc1cc(O)cc(O)c1	H37Rv			culture	Mycobacterium tuberculosis		MIC			100 µg/mL
C=CCc1ccc(O)c(OC)c1	2892			culture	Candida glabrata		MIC90	turbidity		500 µg/mL
OCC(O)C(O)C(O)C(O)/C=N/O	H37Rv			culture	Mycobacterium tuberculosis		MIC			>100 µg/mL
O=C1C2=C(OCO2)C(=O)c2cc(O)ccc21	H37Rv			culture	Mycobacterium tuberculosis		inhibition	BACTEC	12.5 µg/mL	80%
Fc1ccc(-c2cncc(N3CCN(c4cccc(C(F)(F)F)c4)CC3)n2)cc1Cl		UL97 kinase		target	Cytomegalovirus		IC50			<100 µM
CC1(C)C2CCC1(C)C(N)C2.Cl	H37Rv			culture	Mycobacterium tuberculosis		MIC			>100 µg/mL
Fc1ccc(N2CCN(c3cncc(-c4cccc5ccccc45)n3)CC2)c(F)c1		UL97 kinase		target	Cytomegalovirus		IC50			<100 µM
Nc1nc(N)nc(-c2ccc([N+](=O)[O-])o2)n1	CS-R			culture	Mycobacterium tuberculosis		MIC			6.3 µg/mL
O=C(/C=C/c1ccccc1)Nc1nnc(NCCNc2ccccc2)s1		Polymerase		target	Human cytomegalovirus		IC50			>25 µM
C[C@H](Cc1ccc(O)c(O)c1)[C@@H](C)Cc1ccc(O)c(O)c1	CCC 126-2000			culture	Candida albicans		MIC80	broth dilution		250 µg/mL
Cc1ccc(S(=O)(=O)NC(=O)NC(=S)c2ccco2)cc1	H37Rv			culture	Mycobacterium tuberculosis		MIC bound	resazurin		>6.25 µg/mL
O=C(Nc1nnc(NCc2ccccn2)s1)c1c(Cl)cccc1Cl		Polymerase		target	Human cytomegalovirus		IC50			>25 µM
Fc1cc(-c2cncc(N3CCN(c4ccccc4F)CC3)n2)ccc1-c1ccccc1		UL97 kinase		target	Cytomegalovirus		IC50			<100 µM
O=C(Nc1nnc(NCCCNC2CCCCC2)s1)c1ccc2c(c1)C(=O)OC2=O		Polymerase		target	Human cytomegalovirus		IC50			<25 µM
NNC(=O)CNc1ccc(Cl)cc1	H37Rv			culture	Mycobacterium tuberculosis		MIC bound	BACTEC		>12.5 µg/mL
CCCCCCCCCCCCCCN	H37Rv			culture	Mycobacterium tuberculosis		MIC			25 µg/mL
FC(F)(F)c1ccc2c3c(c4c(c2n1)OCN(Cc1ccc(Cl)cc1Cl)C4)CN(Cc1ccc(Cl)cc1Cl)CO3	H37Rv			culture	Mycobacterium tuberculosis		MIC bound			>6.25 µg/mL
Cl.N#CCC(=O)c1cccc(N)c1	H37Rv			culture	Mycobacterium tuberculosis		MIC			>100 µg/mL
N=C(N)/C=C/C(=O)O	H37Rv			culture	Mycobacterium tuberculosis		inhibition	BACTEC	12.8 µg/mL	10%
O=C1OC(=O)c2c(I)cccc21	H37Rv			culture	Mycobacterium tuberculosis		MIC			>100 µg/mL
Fc1ccccc1CCNCCNC12CC3CC(CC(C3)C1)C2				culture	Mycobacterium tuberculosis		MIC			50 µM
O.O=C(O)C(O)C(=O)O	H37Rv			culture	Mycobacterium tuberculosis		MIC			>100 µg/mL
CCCCC(CC)CN1CN(CC(CC)CCCC)CC(C)(NCCNC2CCCc3ccccc32)C1				culture	Mycobacterium tuberculosis		MIC			50 µM
O=[N+]([O-])c1ccc(N2CCN(Cc3ccccc3)CC2)c2c1no[n+]2[O-]	H37Rv			culture	Mycobacterium tuberculosis		MIC bound	resazurin		<6.25 µg/mL
CCSCC(=O)Nc1cc(Cl)c(C)cc1O	H37Rv			culture	Mycobacterium tuberculosis		MIC			>100 µg/mL
Fc1ccc(-c2cncc(NCc3ccco3)n2)c(F)c1		UL97 kinase		target	Cytomegalovirus		IC50			<10 µM
COc1ccccc1CCNCCNCCCCc1ccccc1				culture	Mycobacterium tuberculosis		MIC			25 µM
N[C@H](C(=O)O)[C@H]1ON=C(Cl)[C@@H]1O	RMP-R			culture	Mycobacterium tuberculosis		MIC			12.5 µg/mL
CCOC(=O)c1ccc([N+](=O)[O-])cc1O	H37Rv			culture	Mycobacterium tuberculosis		MIC			>100 µg/mL
FC(F)(F)c1ccc(-c2cncc(N3CCN(c4cccc(Cl)c4)CC3)n2)cc1		UL97 kinase		target	Cytomegalovirus		inhibition		10 µM	>15%
CCCCCCCCCCCCCCCCCCNCCNC1C2CC3CC(C2)CC1C3				culture	Mycobacterium tuberculosis		MIC			50 µM
Br.CC(C(=O)c1ccccc1)N1CCCCC1	H37Rv			culture	Mycobacterium tuberculosis		MIC			100 µg/mL
Fc1ccc(N2CCCCC2)c(NC(=S)c2ccncc2)c1		EphA5		host protein			inhibition	kinase activity	10 µM	9%
CC(C)c1ccc(C(=O)O)cc1N=Nc1ccc(O)cc1O	H37Rv			culture	Mycobacterium tuberculosis		MIC			>100 µg/mL
O=C(/C=C/c1ccccc1)c1c[nH]c2ccccc12	H37Rv			culture	Mycobacterium tuberculosis		inhibition	BACTEC	6.25 µg/mL	49%
CC(C)=CCN1c2cc(Cl)cc3[nH]c(=S)n(c23)C[C@@H]1C			RT-K70R	culture	HIV-1	MT-4	EC95			0.1 µM
CC(=O)c1ccc2c(ccc3ccccc32)c1	H37Rv			culture	Mycobacterium tuberculosis		MIC			>100 µg/mL
CNc1cc2oc(=O)cc(C)c2cc1C	H37Rv			culture	Mycobacterium tuberculosis		inhibition	BACTEC	12.5 µg/mL	10%
CC(C)=CCC/C(C)=C/CNCCNC1CCCCCCC1				culture	Mycobacterium tuberculosis		MIC			25 µM
CC(C)c1ccc2c(c1)CCC1C2(C)CCCC1(C)C(O)c1ccccc1	H37Rv			culture	Mycobacterium tuberculosis		inhibition	BACTEC	12.5 µg/mL	98%
CCOCCCNCCNCCC(c1ccccc1)c1ccccc1				culture	Mycobacterium tuberculosis		MIC			25 µM
COC(=O)c1nn2c(=O)n(C(C)=O)c3ccccc3c2c1C(=O)OC	H37Rv			culture	Mycobacterium tuberculosis		MIC bound	BACTEC		>12.5 µg/mL
CC(C)c1cc(C(C)C)c(C(=O)Nc2nnc(NCC3CCCCC3)s2)c(C(C)C)c1		Polymerase		target	Human cytomegalovirus		IC50			>25 µM
CC(=O)c1ccccc1C(=O)O	H37Rv			culture	Mycobacterium tuberculosis		MIC			>100 µg/mL
Cc1cc2c3ccccc3[nH]c(=O)n2n1	H37Rv			culture	Mycobacterium tuberculosis		inhibition	BACTEC	12.5 µg/mL	-5%
OCc1ccc(-c2cncc(N3CCN(c4ccc(F)cc4)CC3)n2)cc1		UL97 kinase		target	Cytomegalovirus		IC50			<10 µM
NS(=O)(=O)c1ccc(CCNc2nnc(NC(=O)/C=C/c3ccccc3)s2)cc1		Polymerase		target	Human cytomegalovirus		IC50			<25 µM
Cc1ccc(NC(=O)C(c2ccccc2)c2ccccc2)cc1Cl	H37Rv			culture	Mycobacterium tuberculosis		MIC bound	BACTEC		>12.5 µg/mL
NNc1ccc(C(=O)O)cc1	H37Rv			culture	Mycobacterium tuberculosis		MIC			50 µg/mL
Cc1ncc(CO)c(C2NCCS2)c1O	H37Rv			culture	Mycobacterium tuberculosis		inhibition	BACTEC	12.5 µg/mL	0%
CCC(CC)[C@H](NC(C)=O)[C@@H]1[C@H](O)[C@@H](C(=O)O)C[C@H]1N=C(N)N	Influenza A/Virginia/2/88R (H3N2)			culture	Influenza A virus	MDCK	EC50	visual reading		<0.01 µM
COc1ccc(-c2coc3c4c(c(CC=C(C)C)c(OC)c3c2=O)OC(C)(C)C=C4)cc1	H37Rv			culture	Mycobacterium tuberculosis		MIC	BACTEC		≥12.5 µg/mL
CCO/N=C/c1ccc(OCCC2CCN(c3ccc(Cl)nn3)CC2)cc1	50-525-CV54 (ICAM-1 receptor group 85)			culture	Rhinovirus	KB	EC50	neutral red		0.01 µM

The last 5 rows once more:

compound	strain	protein	mutations	test	species	cells	endpoint	read by	tested at	value
NNc1ccc(C(=O)O)cc1	H37Rv			culture	Mycobacterium tuberculosis		MIC			50 µg/mL
Cc1ncc(CO)c(C2NCCS2)c1O	H37Rv			culture	Mycobacterium tuberculosis		inhibition	BACTEC	12.5 µg/mL	0%
CCC(CC)[C@H](NC(C)=O)[C@@H]1[C@H](O)[C@@H](C(=O)O)C[C@H]1N=C(N)N	Influenza A/Virginia/2/88R (H3N2)			culture	Influenza A virus	MDCK	EC50	visual reading		<0.01 µM
COc1ccc(-c2coc3c4c(c(CC=C(C)C)c(OC)c3c2=O)OC(C)(C)C=C4)cc1	H37Rv			culture	Mycobacterium tuberculosis		MIC	BACTEC		≥12.5 µg/mL
CCO/N=C/c1ccc(OCCC2CCN(c3ccc(Cl)nn3)CC2)cc1	50-525-CV54 (ICAM-1 receptor group 85)			culture	Rhinovirus	KB	EC50	neutral red		0.01 µM